From patent US20030216569A1, “Method of making HIV protease inhibitors” (priority 1993, published 2003)

Test system: HIV-1 isolates IIIB and/or RF in CEM cells
Experiment: SRI primary anti-HIV screen, MTT assay of inhibition of HIV-induced cell killing in CEM cells
Format: cell-based

CC(C)(C)NC(=O)c1ccccc1C[C@@H](O)[C@H](Cc1ccccc1)NC(=O)[C@H](CC(N)=O)NC(=O)c1ccc2ccccc2n1
SRI CEM IC50 ng/mL: (74.8) ng/mL

The match of structure and compound is tentative.
